Experiments:
wild-type YopH = wild-type YopH (Yersinia pestis, UniProt O68720); type: binding
YopH = YopH (Yersinia pestis, UniProt O68720); conditions: read-out: pNPP IC50; cited from earlier work

Sequences of proteins named here, by UniProt entry; tags and fusion partners are left off. Residues count along the entry.
UniProt O68720, 164-468 limits assumed: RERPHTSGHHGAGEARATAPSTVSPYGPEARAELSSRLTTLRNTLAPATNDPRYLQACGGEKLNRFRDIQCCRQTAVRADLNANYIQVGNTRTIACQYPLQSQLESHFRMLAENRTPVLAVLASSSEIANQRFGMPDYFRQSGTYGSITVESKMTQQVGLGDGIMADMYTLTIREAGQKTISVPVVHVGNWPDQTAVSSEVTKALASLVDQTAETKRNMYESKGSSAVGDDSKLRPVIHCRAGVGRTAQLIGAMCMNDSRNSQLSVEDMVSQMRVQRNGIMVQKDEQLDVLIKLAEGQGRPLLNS

| Substance | Kd (wild-type YopH) [µM] | IC50 (YopH) [µM] |
| --- | --- | --- |
| (difluoro((3-(4-((((E)-furan-3-ylmethylidene)amino)oxy)methyl)phenyl)phenyl))methyl) phosphonic acid [compound 1] | 311 | 3.67 |
| (difluoro((3-(4-((((E)-furan-2-ylmethylidene)amino)oxy)methyl)phenyl)phenyl))methyl) phosphonic acid [compound 2] | 141 | 1.2 |
